Source: publication PMC7459655 (Biomedicines, 2020)

Key:
[1] = test system: P. falciparum CQ-sensitive strain 3D7; test: Malstat assay, CQ-sensitive 3D7 strain; settings: for antiplasmodial activity against 3D7 (in words): 3D7, 72 h; for pIC50 / IC90: CQ-sensitive 3D7, ring stage cultures, 72 h; for SI (ratio of CC50 and IC50): CC50 Nalm-6 / IC50 3D7
[2] = test system: P. falciparum gametocyte-producing strain NF54 gametocytes; test: Gametocyte toxicity assay; format: cell-based, Plasmodium falciparum; settings: epoxomicin 60 nM, positive control
[3] = test system: P. falciparum CQ-resistant strain Dd2; test: Malstat assay, CQ-resistant Dd2 strain; settings: for SI (ratio of CC50 and IC50): CC50 Nalm-6 / IC50 Dd2; for antiplasmodial activity against Dd2 compared to 3D7 (in words): Dd2, 72 h
[4] = test system: P. falciparum mature gametocytes (male gametogenesis); test: Exflagellation inhibition assay; format: cell-based, Plasmodium falciparum; settings: TLCK 30 µM, positive control
[5] = CQ-resistant Dd2, ring stage cultures, 72 h

Compound	antiplasmodial activity against 3D7 (in words) [1]	pIC50 [1]	IC90 [1]	other results
CC(C)(C)c1cc2c(c(C(C)(C)C)c1)[As](=O)(O)OC2=O	higher micromolar ranges	4.34		
O=C(O)c1cccc2c1[As](=O)(O)OC2=O	inactive	< 3.70	> 200 µM	
epoxomicin				effect on gametocytes (in words) [2]: complete elimination of gametocytes
c1ccc([As]23(OCCO2)OCCO3)cc1	lower micromolar ranges	5.12	68.8 µM	SI (ratio of CC50 and IC50) [1]: >13; SI (ratio of CC50 and IC50) [3]: >3; pIC50 [3, 5]: 4.46; antiplasmodial activity against Dd2 compared to 3D7 (in words) [3]: reduced antiplasmodial activities
O=[As](O)(O)c1ccccc1O	lower micromolar ranges	5.12	68 µM	SI (ratio of CC50 and IC50) [1]: >13; SI (ratio of CC50 and IC50) [3]: >12; pIC50 [3, 5]: 5.08; IC90 [3, 5]: 74.4 µM; antiplasmodial activity against Dd2 compared to 3D7 (in words) [3]: maintained their inhibitory activities
CC(=O)O[C@@H](C)C(=O)Nc1ccccc1[As](=O)(O)O	inactive			
Tosyl-L-lysyl-chloromethane hydrochloride				reduction of the numbers of exflagellation centers [4]: 96%

pIC50: −log10 of the molar value.
